Source: article PMC7143421 (Marine Drugs, 2020)

Test system: mice
Conditions: mouse, in vivo

**Q.** What does the source list for C1COCCN1 [morpholine]?
**A.** Pain Threshold (s) 15 min: 17.19 ± 2.22 s; Pain Threshold (s) 30 min: 41.80 ± 4.58 s; Pain Threshold (s) 60 min: 50.41 ± 6.59 s; Pain Threshold (s) 120 min: 50.82 ± 4.35 s; Pain Threshold (s) 180 min: 47.11 ± 4.04 s; pain threshold (s) 15min: 17.19 ± 2.22 s; pain threshold (s) 30min: 41.80 ± 4.58 s; pain threshold (s) 60min: 50.41 ± 6.59 s; pain threshold (s) 120min: 50.82 ± 4.35 s; pain threshold (s) 180min: 47.11 ± 4.04 s
